Experimental data: PubChem BioAssay AID504761 (Drosophila RNAi Screening Center, 2011)
The deposit covers about 22,000 reagents; shown is an unselected part of those that have a named target and a result. Over the whole deposit, 116 (0.52%) were called active. 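Calls depend on retest data that are not deposited; infection was ranked per plate without normalising between plates; the unit of the infection score is not given.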 Raw values are not corrected between plates. Unmarked entries are inactive. Not given: the amount of reagent, the time to read-out.

Screen: 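Insect host genes that dengue virus relies on to spread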 (primary screen)
Cells: D.Mel-2 cells from Drosophila
Reagent: long dsRNA against Drosophila genes
Conditions: infection with dengue virus type 2; dose and infection time not stated
Measured: 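Per well on two replicate plates, imaging gave the percent of cells positive for viral envelope protein, ranked by infection, and a nuclear count of cells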
Direction: infection score: higher = more virus-infected cells; cell count: higher = more cells in the well
Hit rule: 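Low infection ranks in the two replicates (chance level up to 0.065) followed by a retest with a 1.5-fold or larger significant decrease, p below 0.05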
Meaning of the calls: active = confirmed: knock-down lowers infection; inactive = not picked or not confirmed

no.	predicted target	amplicon	infection score, replicate 1	infection score, replicate 2	cell count, replicate 1	cell count, replicate 2
1	aos (GeneID 39833)	DRSC11323	1.47	0.73	5699	6310
2	osa (GeneID 42130)	DRSC17022	8.44	3.87	5308	5524
3	CG7201 (GeneID 38929)	DRSC10786	1.54	1.64	5374	6046
4	CG33235 (GeneID 2768871)	DRSC19641	4.28	14.3	2078	5510
5	CG30060 (GeneID 246426)	DRSC05419	1.23	0.25	6504	6336
6	Klp59C (GeneID 37671)	DRSC04348	21.4	27.3	6130	5377
7	Klp59C (GeneID 37671)	DRSC24637	2.64	1.08	6207	6459
8	CG6324 (GeneID 32481)	DRSC19985	4.79	4.16	6472	6784
9	ATPsynD (GeneID 42291)	DRSC14093	1.69	3.47	5101	3829
10	ATPsynD (GeneID 42291)	DRSC26487	9.21	16.8	4808	4913
11	CG42561 (GeneID 8674029)	DRSC05676	1.39	1.9	6260	5685
12	Sytbeta (GeneID 39630)	DRSC10009	3.82	4.82	6094	6116
13	Sytbeta (GeneID 39630)	DRSC10351	1.89	3.71	6122	5950
14	mGluR (GeneID 43838)	DRSC17215	13	2.15	5730	6892
15	Sil1 (GeneID 43034)	DRSC14242	4.55	2.46	6483	6842
16	Ufd1 (GeneID 39254)	DRSC10607	8.33	6.8	3361	3325
17	MED20 (GeneID 43952)	DRSC03463	2.65	2.86	6104	839
18	Sec13 (GeneID 44437)	DRSC14144	72.7	74.3	3354	2160
19	AIMP2 (GeneID 39690)	DRSC09877		17.7	426	5181
20	AIMP2 (GeneID 39690)	DRSC26797	18.3	0.66	6436	6865
21	Zasp66 (GeneID 38988)	DRSC08932	1.92	0.37	6151	6225
22	Zasp66 (GeneID 38988)	DRSC10631	13.5	15.7	3802	4397
23	Zasp66 (GeneID 38988)	DRSC10632	7.75	2.67	5481	6282
24	Pgam5 (GeneID 31143)	DRSC18551	3.63	3.38	6532	6755
25	Gr23a (GeneID 33453)	DRSC27488	7.11	9.7	1970	6214
26	mthl3 (GeneID 36961)	DRSC06997	14.6	10.8	5548	5949
27	mthl3 (GeneID 36961)	DRSC24927	4.32	4.4	6024	6548
28	Snx6 (GeneID 34126)	DRSC03081	9.43	14.3	6264	3876
29	Snx6 (GeneID 34126)	DRSC29702	9.15	5.27	6271	5842
30	tok (GeneID 42944)	DRSC17087	4.58	4.32	6897	6118
31	CG10650 (GeneID 35162)	DRSC02085	9.96	23.6	6347	4810

Copied from the list.
Result for MED20 (GeneID 43952) [DRSC03463] under “infection score, replicate 1”: 2.65
Under “infection score, replicate 2”, Sil1 (GeneID 43034) [DRSC14242] shows 2.46
Result of AIMP2 (GeneID 39690) [DRSC26797] in “cell count, replicate 1”: 6436
Result of osa (GeneID 42130) [DRSC17022] in “cell count, replicate 2”: 5524
Snx6 (GeneID 34126) [DRSC29702], infection score, replicate 1 → 9.15
CG30060 (GeneID 246426) [DRSC05419], infection score, replicate 2: 0.25

The listing continues:
no.	predicted target	amplicon	infection score, replicate 1	infection score, replicate 2	cell count, replicate 1	cell count, replicate 2
32	Tmf (GeneID 31629)	DRSC18368	3.67	2.62	6835	7094
33	Tmf (GeneID 31629)	DRSC30004	17.9	10.2	6213	6123
34	gek (GeneID 37858)	DRSC04688	3.34	51.9	5960	2694
35	ND-24L (GeneID 39926)	DRSC10650	1.94	1.65	6351	6130
36	ND-24L (GeneID 39926)	DRSC28201	8.9	13	4033	6457
37	E(spl)malpha-BFM (GeneID 43153)	DRSC16994	6.99	9.07	6148	6723
38	E(spl)malpha-BFM (GeneID 43153)	DRSC28358	14.7	19.4	5256	4583
39	CG5783 (GeneID 35088)	DRSC02894	14.5	4.15	5597	6981
40	CG13694 (GeneID 33169)	DRSC00363	7	26.4	6619	6299
41	TrpA1 (GeneID 39015)	DRSC10544	0.9	2.81	6470	6223
42	CG3492 (GeneID 37902)	DRSC04373	9.9	15.8	6543	6485
43	mRpS10 (GeneID 41838)	DRSC15557	2.94	19	5573	4724
44	spn-F (GeneID 43700)	DRSC14475	7.2	1.79	1959	6243
45	spn-F (GeneID 43700)	DRSC29328	17.1	7.8	2939	1589
46	CG12691 (GeneID 31370)	DRSC17880	1.42	7.12	989	7387
47	CG32548 (GeneID 32826)	DRSC19627	1.82	6.83	6438	6665
48	CG32548 (GeneID 32826)	DRSC19982	1.08	6.97	6586	6769
49	CG32548 (GeneID 32826)	DRSC28857			271	387
50	Obp22a (GeneID 246672)	DRSC00088	5.59	5.69	6080	5727
51	Lint-O (GeneID 31254)	DRSC18468	9.51	2.58	5645	1397
52	Lint-O (GeneID 31254)	DRSC23789	2.22	6.06	5669	5912
53	CG32196 (GeneID 317908)	DRSC09548	6.86	5.68	6081	5807
54	gammaSnap1 (GeneID 37842)	DRSC04686	15.3	28.8	6204	5883
55	gammaSnap1 (GeneID 37842)	DRSC28381	12.9	16.9	5470	4446
56	CG42588 (GeneID 39457)	DRSC09820	1.59	2.28	6021	6226
57	CG42588 (GeneID 39457)	DRSC22121	4.26	8.21	5922	6638
58	CG42588 (GeneID 39457)	DRSC26914	16	8.26	6344	6562
